Earlier results, collected in patent US20130344008A1, “NONCARIOUS MATERIAL AND ANTICARIOUS AGENT CONTAINING RARE SUGAR” (priority 2006, published 2013).

Details: cited from earlier work

| SMILES | sweetness level relative to the sweetness level of sucrose |
| --- | --- |
| OC[C@@H](O)C(O)[C@H](O)CO [D-arabitol] | about 68% |
| O=C(CO)[C@H](O)[C@H](O)[C@H](O)CO [D-psicose] | about 70% |
| O=C[C@H](O)[C@H](O)[C@H](O)[C@H](O)CO [D-allose] | about 65% |
